Anti-infective test results gathered from many reports (values: NIAID ChemDB through PubChem).

All rows: whole-cell or culture tests

a–b is a range or a potency band.

compound | strain | species | cells | method | read-out | mutations | dose | result
[O-][n+]1ccccc1SCc1ccccc1 |  | Cytomegalovirus | HEL | cytopathic effect | EC50 |  |  | >50 µg/mL
CCC(=O)NC[C@H]1CN(c2ccc(C3CCS(=O)(=O)CC3)c(F)c2)C(=O)O1 | UC12084 | Staphylococcus epidermidis |  |  | MIC |  |  | 0.5 µg/mL
O=C1[C@@H](Cc2ccccc2)NC(=S)N1Cc1ccccc1 |  | HIV-2 | MT-4 | RT activity | inhibition |  | 100 µg/mL | 98%
C=Cc1cn(OC(CO)CO)c(=O)[nH]c1=O |  | Duck hepatitis B virus |  |  | EC50 |  |  | 0.3–1 µg/mL
COc1cccc(CN2CCC(C(=O)Nc3cccc(-c4cccc(F)c4)c3)CC2)c1OC | JFH-1 | Hepatitis C virus | Huh7 | PCR | inhibition |  | 15 µM | ≥40%
COC(=O)N1CC=C(c2ccc(C3=NO[C@@H](CNC(=O)O)C3)cc2)CC1 | UC12084 | Staphylococcus epidermidis |  |  | MIC |  |  | 1 µg/mL
Cc1nc(N[C@H]2CCOC[C@@H]2C)nc(-n2ccnc2)c1[N+](=O)[O-] |  | Cytomegalovirus |  | plaque count | inhibition |  | 0.6 µM | 99.9%
O=C(NC[C@H]1CN(c2ccc(C3CCS(=O)(=O)CC3)c(F)c2)C(=O)O1)C1CC1 | UC12084 | Staphylococcus epidermidis |  |  | MIC |  |  | 2 µg/mL
O=C(Nc1cccc(C2=NCCN2)c1)Nc1cccc(C(F)(F)F)c1 | ES142 | Escherichia coli |  |  | MIC |  |  | >300 µM
Nc1cnn([C@@H]2O[C@H](CO)[C@@H](O)[C@H]2O)c(=O)n1 | TYPE 5 | Adenovirus | HEP-2 |  | inhibition |  | 125 µg/mL | 100%
O=[N+]([O-])c1ccc(C=Nc2ccccc2O)cc1 | 196L/03 | Cryptococcus gattii |  |  | MIC99 |  |  | 16 µg/mL
COc1ccc(CNC(=O)C2C3CN(C(=O)c4ccc(Br)c(Cl)c4)CCN3CN2c2ccc(C#N)cc2)c(C)c1 |  | Hepatitis B virus | HepG2.117 | PCR | EC50 |  |  | 0.5–5 µM
Nc1nc2c(ncn2COC(CO)CO)c(=O)[nH]1 | Smith (resistant) | Mouse cytomegalovirus | HFF | plaque count | EC50 |  |  | 27.5 µM
CC[C@@H](C(C)C)[C@H](O)[C@@H](O)[C@@H](C)[C@H]1CC[C@H]2[C@@H]3CC(=O)[C@@]4(O)C[C@@H](Br)CC[C@]4(C)[C@H]3CC[C@]12C | AN3739 | Pichinde virus | VERO | plaque count | EC50 |  |  | 0.6 µM
O=C(O[C@@H]1Cc2c(O)cc(O)cc2O[C@@H]1c1cc(O)c(O)c(O)c1)c1cc(O)c(O)c(O)c1 |  | Hepatitis B virus |  | PCR | inhibition |  | 50 µM | 63.4%
O=C(O)NC[C@H]1CC(c2ccc(N3CCOCC3)c(F)c2)=NO1 | UC12084 | Staphylococcus epidermidis |  |  | MIC |  |  | 2 µg/mL
Nc1nc(N)c2ncn(OCC(CO)OCP(=O)(O)O)c2n1 | K184 | Maedi-visna virus |  |  | MIC |  |  | 0.06 µM
Cc1nc(N2CCOC[C@@H]2C)nc(-n2ccnc2)c1[N+](=O)[O-] |  | Cytomegalovirus |  | plaque count | inhibition |  | 0.4 µM | 99.9%
O=C(NCCc1ccccc1)Nc1nc2ccc(F)cc2s1 |  | HIV-2 | MT-4 | cytopathic effect / XTT | inhibition |  | 0.1 µg/mL | 4%
N#Cc1cnn(-c2ccc(C3=NO[C@@H](CNC(=O)O)C3)cc2F)c1 | UC12084 | Staphylococcus epidermidis |  |  | MIC |  |  | 1 µg/mL
COc1cc(OC)c(NC(=S)Nc2ccc(NC(C)=O)cc2)cc1Cl | ELLEN | Varicella zoster virus | HFF | ELISA | inhibition |  | 10 µg/mL | 2%
O=C1[C@@H](Cc2ccccc2)NC(=S)N1c1ccccc1 |  | HIV-2 | MT-4 | cytopathic effect / XTT | inhibition |  | 1 µg/mL | 37%
Cc1nc(NCCCCNc2ccnc3cc(Cl)ccc23)nc(-c2ccccc2[N+](=O)[O-])c1C(=O)OC(C)C | ATCC 32608 | Cryptococcus gattii |  |  | MIC99 |  |  | 16 µg/mL
O=C(NNC(=O)Nc1ccc(Cl)c(Cl)c1)Nc1ccc(Cl)c(Cl)c1 | KL21 | Klebsiella pneumoniae |  |  | MIC |  |  | 1.2 µM
COc1ccc(-n2c(C(=O)NCc3ccc(C#N)cc3)c3n(c2=O)CCN(C(=O)c2ccc(Br)c(Cl)c2)C3)cc1 |  | Hepatitis B virus | HepG2.117 | PCR | EC50 |  |  | 0.5–5 µM
C=C(C)C1COc2cc(OC)c3c(c2C1)OC(c1ccccc1)=CC3OC | Type 2/Mexican isolate | Dengue virus | LLC-MK2 | plaque count | inhibition |  | 12 µM | 36.4%
CC(C)Oc1ccc(-n2c(-c3ncc(Cc4ccccc4)s3)c3n(c2=O)CCN(C(=O)c2ccc(Br)c(Cl)c2)C3)cc1 |  | Hepatitis B virus | HepG2.117 | PCR | EC50 |  |  | >0.5 µM
O=C(O)P(=O)(O)O | Smith (resistant) | Mouse cytomegalovirus | HFF | plaque count | EC50 |  |  | 230 µM
COc1ccc(-c2ccc(C3=CC(CNC(C)=O)OC3=O)cc2)ccc1=O | UC12084 | Staphylococcus epidermidis |  |  | MIC |  |  | 1 µg/mL
Nc1ncnc2c1ncn2OCC(CO)OCP(=O)(O)O | K184 | Maedi-visna virus |  |  | MIC |  |  | 3.1 µM
O=C(Nc1cccc(-c2cccc(Cl)c2)c1)C1CCN(Cc2ccc(O)cc2)CC1 | JFH-1 | Hepatitis C virus | Huh7 | PCR | inhibition |  | 15 µM | ≥40%
Oc1ccccc1N=Cc1ccc2c(c1)OCO2 | 135L/03 | Cryptococcus gattii |  |  | MIC99 |  |  | 11.3 µg/mL
Nc1nc2c(ncn2OCCOCP(=O)(O)O)c(=O)[nH]1 | K184 | Maedi-visna virus |  |  | MIC |  |  | 0.007 µM
O=C(Nc1ccc(Oc2ccccc2F)cc1)C1CCN(Cc2cccc3c2OCO3)CC1 | JFH-1 | Hepatitis C virus | Huh7 | PCR | inhibition |  | 5 µM | ≥40%
Nc1nc2c(ncn2COCCOP(=O)(O)OP(=O)(O)OP(=O)(O)O)c(=O)[nH]1 |  | Duck hepatitis B virus | Primary duck hepatocytes |  | EC50 |  |  | >10 µM
CC(=O)N1CCN(c2ccc(OC[C@H]3CO[C@](Cn4ccnc4)(c4ccc(Cl)cc4Cl)O3)cc2)CC1 | ATCC 11730 | Aspergillus versicolor |  | broth dilution | MIC |  |  | 200 µg/mL
CCOc1ccccc1CCNC(=S)Nc1nccs1 |  | HIV-2 | MT-4 | cytopathic effect / XTT | inhibition |  | 10 µg/mL | 91%
CC[C@H]1OC(=O)[C@H](C)C(=O)[C@H](C)[C@@H](O[C@@H]2O[C@H](C)C[C@H](N(C)C)[C@H]2O)[C@](C)(OC)C[C@@H](C)C(=O)[C@H](C)[C@H]2N(CCCCn3cnc(-c4cccnc4)c3)C(=O)O[C@]12C | 25 strains | Haemophilus influenzae |  |  | MIC50 |  |  | 1 µg/mL
O=C(NCCc1ccccc1)Nc1nc(C(F)(F)F)cs1 |  | HIV-2 | MT-4 | RT activity | inhibition |  | 0.1 µg/mL | 56%
CCOC(=O)c1c(C)nc(NCCCNc2ccnc3cc(Cl)ccc23)nc1-c1ccccc1 | L-28/02 | Cryptococcus gattii |  |  | MIC99 |  |  | 8 µg/mL
O=C(Nc1cccc(-c2cccc(F)c2)c1)C1CCN(Cc2cccc3c2OCO3)CC1 | JFH-1 | Hepatitis C virus | Huh7 | PCR | inhibition |  | 15 µM | <40%
Nc1nc2c(ncn2OCC(CO)OCP(=O)(O)O)c(=O)[nH]1 | K184 | Maedi-visna virus |  |  | MIC |  |  | 0.003 µM
Cc1ccnc(NC(=O)NCCc2ccccc2)n1 |  | HIV-2 | MT-4 | RT activity | inhibition |  | 100 µg/mL | 100%
CC(C)=CCOc1cc(NC(=S)c2ccsc2C)ccc1Cl | NL4-3 | HIV-1 | CEM + CEM-SS | p24 | fold resistance | RT-V106I |  | 13
O=C(NNC(=O)Nc1cc(C(F)(F)F)cc(C(F)(F)F)c1)Nc1cc(C(F)(F)F)cc(C(F)(F)F)c1 | ES142 | Escherichia coli |  |  | MIC |  |  | 300 µM
Nc1nc2c(ncn2COC(CO)CO)c(=O)[nH]1 | C4 (D341E) | Human cytomegalovirus |  | virus yield | EC50 |  |  | <1.8 µM
Nc1ncnc2c1ncn2OCCOCP(=O)(O)O | K184 | Maedi-visna virus |  |  | MIC |  |  | 8 µM
Oc1ccccc1N=Cc1ccc(O)c(O)c1O | ATCC 32608 | Cryptococcus gattii |  |  | MIC99 |  |  | 11.3 µg/mL
CC(=O)Nc1ccc(NC(=S)Nc2ccc(NC(=O)CN3CCCCC3)c(Cl)c2)cc1 | ELLEN | Varicella zoster virus | HFF | ELISA | inhibition |  | 10 µg/mL | 16%
CC(=O)N[C@H]1[C@H]([C@H](O)[C@H](O)CO)OC(C(=O)O)=C[C@@H]1N=C(N)N | H1N1 A/Beijing/262/95 | Influenza A virus | MDCK | visual reading | EC50 |  |  | 1.5 µM
Nc1ccn(C[C@@H](CO)OCP(=O)(O)O)c(=O)n1 | SMITH (WILD TYPE) | Mouse cytomegalovirus | HFF | plaque count | EC50 |  |  | 0.38 µM
COc1ccc(-n2c(C(=O)N[C@@H](C(=N)N)c3ccccc3)c3n(c2=O)CCN(C(=O)c2ccc(Br)c(Cl)c2)C3)cc1 |  | Hepatitis B virus | HepG2.117 | PCR | EC50 |  |  | >5 µM
CN[C@H]1C[C@@H](n2cnc3c(N)ncnc32)[C@H](O)[C@@H]1O |  | Pichinde virus | HFF |  | EC50 |  |  | >100 µg/mL
Nc1nc2c(ncn2COC(CO)CO)c(=O)[nH]1 |  | Guinea pig cytomegalovirus | GPE | plaque count | EC50 |  |  | 61 µM
O=C(NCCc1ccccc1)Nc1nc2ccccc2s1 |  | HIV-2 | MT-4 | RT activity | inhibition |  | 1 µg/mL | 87%
COc1ccccc1/C=C/CN1CCC(C(=O)Nc2ccc(-n3nc(C)cc3C)cc2)CC1 | JFH-1 | Hepatitis C virus | Huh7 | PCR | inhibition |  | 15 µM | ≥40%

Repeating the first 8 entries:

compound	strain	species	cells	method	read-out	mutations	dose	result
[O-][n+]1ccccc1SCc1ccccc1		Cytomegalovirus	HEL	cytopathic effect	EC50			>50 µg/mL
CCC(=O)NC[C@H]1CN(c2ccc(C3CCS(=O)(=O)CC3)c(F)c2)C(=O)O1	UC12084	Staphylococcus epidermidis			MIC			0.5 µg/mL
O=C1[C@@H](Cc2ccccc2)NC(=S)N1Cc1ccccc1		HIV-2	MT-4	RT activity	inhibition		100 µg/mL	98%
C=Cc1cn(OC(CO)CO)c(=O)[nH]c1=O		Duck hepatitis B virus			EC50			0.3–1 µg/mL
COc1cccc(CN2CCC(C(=O)Nc3cccc(-c4cccc(F)c4)c3)CC2)c1OC	JFH-1	Hepatitis C virus	Huh7	PCR	inhibition		15 µM	≥40%
COC(=O)N1CC=C(c2ccc(C3=NO[C@@H](CNC(=O)O)C3)cc2)CC1	UC12084	Staphylococcus epidermidis			MIC			1 µg/mL
Cc1nc(N[C@H]2CCOC[C@@H]2C)nc(-n2ccnc2)c1[N+](=O)[O-]		Cytomegalovirus		plaque count	inhibition		0.6 µM	99.9%
O=C(NC[C@H]1CN(c2ccc(C3CCS(=O)(=O)CC3)c(F)c2)C(=O)O1)C1CC1	UC12084	Staphylococcus epidermidis			MIC			2 µg/mL

Fold resistance has wild type as its base. A number after MIC or MFC names an inhibition level or a share of isolates. An empty or dashed field is not shown. Conditions beyond the fields shown may differ between rows. ECn is the concentration giving n% inhibition of infection, replication or growth. Percent inhibition refers to the dose given; in toxicity tests it is the harm to the cells.